{
  "sequences": {"note": "Amino acid sequences for entries named in this document (tags omitted). A change or cut given only in a name is not applied to a line headed by its entry.", "UniProt P04483": "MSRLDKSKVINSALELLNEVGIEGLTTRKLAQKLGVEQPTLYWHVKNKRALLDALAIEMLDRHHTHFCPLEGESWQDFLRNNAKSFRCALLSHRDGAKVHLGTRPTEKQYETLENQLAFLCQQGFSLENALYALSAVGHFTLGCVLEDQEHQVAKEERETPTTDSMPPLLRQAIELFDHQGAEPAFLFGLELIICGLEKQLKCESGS"},
  "source": "paper PMC6328932",
  "about": "“Procaspase activating compound 1 controls tetracycline repressor-regulated gene expression system” (Bioscience Reports, 2019)",
  "molecular_target": "TetR(B) (UniProt P04483)",
  "test": "EMSA",
  "conditions": "EMSA: 20 mM Tris-HCl pH 8.0, 50 mM NaCl, 1 mM MgCl2, 0.1 mM DTT, 15 min at room temperature, 8% PAGE in 90 mM Tris, 90 mM boric acid, 5 mM MgCl2, recombinant protein, label: none (ethidium bromide stain)",
  "note": "For at least one entry, the source does not settle the construct or the ends of the probe. A negative result means that nothing was seen under these conditions.",
  "data": [
    {"sequence": "CCTAATTTTTGTTGACACTCTATCATTGATAGAGTTATTTTACCACTC (double strand) [tetO]", "values": [
      {"measurement": "binding result", "setting": "20 uM Dox + PAC-1 up to 2 mM, tetO stays free", "value": "no binding"},
      {"measurement": "binding result", "setting": "20 uM Dox, 4 uM TetR, 0.5 uM tetO, complex completely disappears", "value": "no binding"}
    ]}
  ]
}
